HIV-1 NL4-3 point mutations in Nef: replication capacity

The measurements come from Al-Mawsawi et al. 2014 (doi:10.1186/s12977-014-0124-6).

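Seven fragments of pNL4-3 were mutated by error-prone PCR, and each virus pool was passaged in CEM T cells. The RC index is the frequency of a change after passage round 2 divided by its frequency in the plasmid library.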

Protein: Nef of HIV-1 NL4-3, numbered from its first residue.
From base 9076 on, changes also alter the 3' U3.
Effects on overlapping genes or RNA elements are not listed.

RC index: lower means poorer replication; rough cut-offs are 0.1 (lethal) and 0.2 (tolerated).
Each entry names the wild-type residue, its position and the residue put in its place.
Input reads are the counts in the plasmid library.
An index over 1, which the authors read as above wild type, was rare (1.9% of all changes in the genome).
Base changes are numbered along pNL4-3.
Since each clone held several changes (about five per kb), neutral changes can read low.

With E197K (base G9375A, input reads 164) the assay gave 0.824.
With L110R (base T9115G, input reads 53) the assay gave 0.544.
With A60T (base G8964A, input reads 465) the assay gave 1.08.
With K7R (base A8806G, input reads 348) the assay gave 0.0915.
With P147R (base C9226G, input reads 60) the assay gave 0.804.
With E98D (base A9080C, input reads 93) the assay gave 0.455.
With I11T (base T8818C, input reads 351) the assay gave 0.323.
With Q125K (base C9159A, input reads 105) the assay gave 0.659.
With S8R (base T8810G, input reads 137) the assay gave 0.526.
With Q61E (base C8967G, input reads 35) the assay gave 0.927.
With I114L (base A9126C, input reads 32) the assay gave 0.541.
With M20L (base A8844T, input reads 199) the assay gave 0.102.
With W141R (base T9207C, input reads 195) the assay gave 0.441.
With E65G (base A8980G, input reads 259) the assay gave 0.899.
With V168L (base G9288C, input reads 76) the assay gave 0.652.
With D174V (base A9307T, input reads 241) the assay gave 0.633.
With P200Q (base C9385A, input reads 488) the assay gave 0.581.
With Q61R (base A8968G, input reads 312) the assay gave 0.737.
With R77K (base G9016A, input reads 74) the assay gave 1.51.
With D151E (base T9239A, input reads 205) the assay gave 0.712.
With F90V (base T9054G, input reads 109) the assay gave 0.229.
With C206Y (base G9403A, input reads 498) the assay gave 1.20.
With H192Y (base C9360T, input reads 200) the assay gave 0.794.
With D123E (base T9155A, input reads 396) the assay gave 0.670.
With N157S (base A9256G, input reads 303) the assay gave 0.976.
With H40L (base A8905T, input reads 75) the assay gave 0.433.
With Q104P (base A9097C, input reads 90) the assay gave 0.470.
With K94R (base A9067G, input reads 109) the assay gave 1.13.
With V30G (base T8875G, input reads 69) the assay gave 0.0454.
With V74E (base T9007A, input reads 215) the assay gave 0.315.
With P78T (base C9018A, input reads 59) the assay gave 0.741.
With A53D (base C8944A, input reads 222) the assay gave 0.521.
With S9G (base A8811G, input reads 352) the assay gave 0.0590.
With V133F (base G9183T, input reads 87) the assay gave 0.734.
With P167A (base C9285G, input reads 78) the assay gave 0.735.
With V153E (base T9244A, input reads 285) the assay gave 1.46.
With C206W (base C9404G, input reads 45) the assay gave 0.600.
With K204Q (base A9396C, input reads 59) the assay gave 0.973.
With V70F (base G8994T, input reads 214) the assay gave 0.870.
With D186V (base A9343T, input reads 415) the assay gave 0.383.
With Q73K (base C9003A, input reads 114) the assay gave 0.606.
With S45R (base T8921A, input reads 187) the assay gave 0.581.
With I11M (base T8819G, input reads 76) the assay gave 0.0729.
With K92E (base A9060G, input reads 260) the assay gave 0.133.
With N51T (base A8938C, input reads 68) the assay gave 0.809.
With A60S (base G8964T, input reads 198) the assay gave 0.933.
With N47K (base T8927A, input reads 233) the assay gave 0.932.
With D175V (base A9310T, input reads 259) the assay gave 0.559.

5 of these entries, quoted again:

| mutation | base | input reads | RC index |
|---|---|---|---|
| I11T | T8818C | 351 | 0.323 |
| Q104P | A9097C | 90 | 0.470 |
| D175V | A9310T | 259 | 0.559 |
| V30G | T8875G | 69 | 0.0454 |
| S8R | T8810G | 137 | 0.526 |